This note sets out measurements from publication PMC8778449.

This data set has as its system His-MoBZIP3 (Y34) (Magnaporthe oryzae Y34). Put plainly: EMSA. To be noted: pH and temperature not given, recombinant protein, protein details: His (pET-28a), label: biotin.

Construct, isoform or probe ends are uncertain for at least one entry.

Regarding “ATTACGTATGTACGTATC (double strand) [Bio-A-box]”, the binding result is on record as “binds”.
